Where a SMILES comes first, the peptide text is derived from it.
Assay: CD spectroscopy of peptide with LPS
Details: CONTIN method, peptide 0.1 mmol L^−1, LPS 25 µmol L^−1

SMILES	Increase of helical content in the presence of LPS [%]
CC[C@H](C)[C@H](NC(=O)[C@@H](N)CCCNC(=N)N)C(=O)N[C@@H](CCCCN)C(=O)N[C@H](C(=O)N[C@@H](C)C(=O)N[C@H](C(=O)N[C@@H](Cc1c[nH]c2ccccc12)C(=O)N[C@@H](CCCNC(=N)N)C(=O)N[C@@H](CC(C)C)C(=O)N[C@@H](C)C(=O)N[C@@H](CC(C)C)C(=O)N[C@@H](CCCNC(=N)N)C(=O)N[C@@H](Cc1c[nH]c2ccccc12)C(=O)N[C@@H](CC(C)C)C(=O)N[C@@H](CCCCN)C(=O)N[C@@H](CC(C)C)C(=O)O)[C@@H](C)O)[C@@H](C)O [KTA] (H-RIKTATWRLALRWLKL-OH)	32.2
CC[C@H](C)[C@H](NC(=O)[C@@H](N)CCCNC(=N)N)C(=O)N[C@@H](CCCCN)C(=O)N[C@H](C(=O)N[C@@H](CCCNC(=N)N)C(=O)N[C@H](C(=O)N[C@@H](Cc1c[nH]c2ccccc12)C(=O)N[C@@H](CCCNC(=N)N)C(=O)N[C@@H](CC(C)C)C(=O)N[C@@H](C)C(=O)N[C@@H](CC(C)C)C(=O)N[C@@H](CCCNC(=N)N)C(=O)N[C@@H](Cc1c[nH]c2ccccc12)C(=O)N[C@@H](CC(C)C)C(=O)N[C@@H](CCCCN)C(=O)N[C@@H](CC(C)C)C(=O)O)[C@@H](C)O)[C@@H](C)O [KTR] (H-RIKTRTWRLALRWLKL-OH)	16.4

Reference: paper PMC9951321
